PubChem BioAssay AID624099, ICCB-Longwood – 2012
This is one part, drawn at random, of about 21,000 reagents. 497 of all reagents (2.4%) count as active. 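Higher z means weaker E2 silencing; only reporter increases were scored, and knock-downs that hurt cell survival may mask genuine repressor factors.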 Entries without a mark were called inactive.

Purpose: 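Host factors E2 relies on to silence an HPV18 LCR reporter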 (primary screen)
Cells: human C33A cervical carcinoma cells (HPV-negative) stably expressing BPV1 E2 and an HPV18 LCR luciferase reporter
Reagents: siRNA pool against human genes, 40 nM
Time to read-out: 72 h
Measurement: 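Per-well luciferase luminescence, z-scored on each plate against the plate mean and SD with control wells left out, then averaged across three replicate plates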
Reading the numbers: mean z-score and z-score: higher = stronger reporter signal, weaker E2 silencing
Active means: 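Hit if mean z-score reaches 2 and two or more of three replicate z-scores also reach 2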

no.	Target gene	mean z-score	z-score, replicate A	z-score, replicate B	z-score, replicate C
1	TRIM61	0.03	-0.02	0.33	-0.23
2	SPAAR	1.15	1.7	0.76	1
3	DNAH11	0.48	0.77	0.17	0.49
4	PCDHB5	-0.35	-0.09	-0.27	-0.68
5	EHF	-0.23	-0.12	-0.42	-0.16
6	OCEL1	0.73	0.73	0.51	0.94
7	LRP1	2.6 (active)	2.46	2.25	3.1
8	MRPL27	-0.64	-0.45	-0.99	-0.5
9	RASA2	0.24	0.2	0.08	0.44
10	TECPR2	0.56	0.44	0.35	0.88
11	AP4S1	0.25	0.24	0.21	0.29
12	UBFD1	-0.64	-0.64	-0.74	-0.55
13	SDCBP2	1.46	1.64	1.71	1.03
14	CEL	-0.88	-0.79	-0.96	-0.9
15	ARHGEF1	-0.82	-0.73	-0.98	-0.75
16	CYP27A1	1.39	1.74	1.25	1.18
17	TMEM248	-0.25	-0.49	-0.03	-0.22
18	BAZ1A	0.14	0.39	0.08	-0.03
19	C17orf75	0.05	-0.31	0.16	0.29
20	SLC6A15	-1.27	-1.34	-1.28	-1.2
21	STARD7-AS1	-0.43	0	-0.98	-0.3
22	CTSC	0.64	0.76	0.6	0.57
23	AKAP14	-0.07	-0.08	-0.08	-0.04
24	TNNT2	0.83	0.79	1.08	0.62
25	PSMA6	-0.95	-1.17	-0.87	-0.8
26	UTS2B	-0.11	-0.42	-0.07	0.17
27	PRPF38A	-0.76	-0.74	-0.82	-0.72
28	NEK8	0.31	0.61	0.16	0.18
29	MLXIPL	-0.57	-0.57	-0.78	-0.38
30	ZNF850-DT	-0.52	-0.44	-0.5	-0.62
31	LOC387903 (retired record)	-0.55	-0.74	-0.63	-0.27
32	LOC285435 (retired record)	-0.2	-0.3	-0.13	-0.16
33	ESYT1	0.21	0	-0.04	0.67
34	ATXN2	-1.33	-1.62	-1.24	-1.13
35	SUMO3	0.91	0.74	1.15	0.84
36	TRIM63	1.89	1.82	1.98	1.86
37	AKR1C3	-1.45	-1.21	-1.41	-1.71
38	KYNU	0	0.14	0.23	-0.36
39	PRPSAP1	-1.28	-0.72	-1.61	-1.52
40	RHOQP3	0.15	0.2	0.17	0.09
41	LOC401589	0.55	0.82	0.94	-0.1
42	PCDHGA10	-0.72	-1.12	-0.64	-0.39
43	KPNA3	-0.62	-0.4	-0.74	-0.7
44	TKTL1	0.51	0.78	0.1	0.64
45	RETN	-0.54	-0.39	-0.68	-0.57
46	TSLIG3A	0.47	0.32	0.57	0.51
47	FBN3	0	0	-0.01	0.01
48	AD7C-NTP (retired record)	0.2	-0.16	0.39	0.38
49	TMPRSS11F	-0.07	-0.53	0.25	0.06
50	SOBP	-0.12	0.2	0.15	-0.72
51	TENT4A	1.27	1.51	1.3	1.01
52	LRP6	2.11 (active)	2.16	2.14	2.03
53	GIPC2	1.57	1.77	1.59	1.35
54	PUS1	-0.44	-0.74	0	-0.59
55	NANOG	0.9	0.59	1.1	1.02
56	LRRC66	-1.4	-1.16	-1.49	-1.55
57	LOC285544 (retired record)	-0.03	-0.07	0.05	-0.06

Laid out differently: results already given.
Target gene,mean z-score,"z-score, replicate A","z-score, replicate B","z-score, replicate C"
LOC285435 (retired record),-0.2,-0.3,-0.13,-0.16
ESYT1,0.21,0,-0.04,0.67
ATXN2,-1.33,-1.62,-1.24,-1.13
SUMO3,0.91,0.74,1.15,0.84
TRIM63,1.89,1.82,1.98,1.86
